The entries are a selection whose mix differs from that of the whole data set. Inconclusive results are not listed. Entries that show only a call come without a potency. The source made the active and inactive calls. Calls come from the whole dose curve; tested in A549 cells.
Test: qHTS for Stage-Specific Inhibitors of Vaccinia Orthopoxvirus: Venus Reporter Primary qHTS; note: nearly all actives have a fitted effect of over 30% in size
Conditions: Vaccinia virus Venus reporter expression, fluorescence; series mostly up to 36.5 µM
Potency is the fitted concentration of half-maximal effect.

SMILES	activity change, negative = inhibition	Potency
O=P1(N(CCCl)CCCl)OCCCS1 (centres undefined)	inactive	
COC(=O)C1(C)COP(=O)(Nc2ccccc2)OC1 (centres undefined)	inactive	
O=C(O)CNc1ccc([As](=O)(O)O)cc1	inactive	
OCCSCCO	inactive	
O=C(OCCCN1CCCC1)C(O)(c1ccccc1)C1CCCCC1 (centres undefined)	inactive	
COc1ccccc1OP(C)(=O)Nc1c(C)n(C)n(-c2ccccc2)c1=O (centres undefined)	inactive	
O=[N+]([O-])c1cccc2n[nH]nc12	inactive	
CC(=O)N1C2C3N(C(C)=O)C1C1N(C(C)=O)C(C(N1C(C)=O)N3C(C)=O)N2C(C)=O	inactive	
CCc1nc2c(n1)c1c(non1O)c1c2no[n+]1[O-]	inactive	
CCc1ccc(OP(C)(=O)Nc2cccnc2)cc1 (centres undefined)	inactive	
CP(=O)(Oc1ccccc1)N1CCOC1=O (centres undefined)	inactive	
Cc1ccc(NP(=O)(Oc2ccccc2)Oc2ccccc2)nc1	inactive	
COc1ccc(OP(C)(=O)Nc2ccc(Br)cc2)cc1 (centres undefined)	inactive	
COc1ccc(C2=NCC(CBr)S2)cc1 (centres undefined)	inactive	
CN(C)C(=O)OCCc1n(C)cc[n+]1C	inactive	
CC(C)=N/N=C(\N)N[N+](=O)[O-]	inactive	
COc1cc([N+](=O)[O-])c([N+](=O)[O-])cc1OC	inactive	
CC(C)c1nc(Nc2ccccc2)n(P(=O)(N(C)C)N(C)C)n1	inactive	
c1cc(-c2nn[nH]n2)ccc1-c1nn[nH]n1	inactive	
CC1CCN(C(=O)Oc2c(Cl)cc(Cl)c3cccnc23)CC1	inactive	
CC(=O)C1=CCCC2CCC1N2 (centres undefined)	inactive	
Nc1ccc([As](=O)(O)c2ccc(N)cc2)cc1	inactive	
COc1ccccc1OP(C)(=O)Nc1ccccc1Br (centres undefined)	inactive	
CP(=O)(Nc1ccc(Cl)cc1)Oc1ccc(F)cc1 (centres undefined)	inactive	
CCN(/C(=N/P(=O)(N1CCOCC1)N1CCOCC1)N1CCOCC1)c1ccc(OC)cc1	inactive	
CCOP(C)(=S)SCC(=O)NC(C)(CC)C(=O)O (centres undefined)	inactive	
c1nnnn1CCn1cnnn1	inactive	

SMILES	activity change, negative = inhibition	Potency
CC(C)C(=O)NC(Sc1ccccc1)C(Cl)(Cl)Cl (centres undefined)	inactive	
O=P(Nc1nccs1)(c1ccccc1)c1ccccc1	inactive	
CCN(CCCl)Cc1ccccc1C	inactive	
Cc1ccccc1NP(C)(=O)Nc1ccccc1C	inactive	
COc1cccc([N+](=O)[O-])c1[N+](=O)[O-]	inactive	
O=[N+]([O-])c1cc([N+](=O)[O-])c(C(F)(F)F)c([N+](=O)[O-])c1O	inactive	
CP(=O)(Nc1ccc2c(c1)OCCO2)Oc1ccccc1 (centres undefined)	inactive	
C[C@H]1OP(=O)(Oc2ccccc2)[C@H](O)[C@H](O)[C@H]1N=[N+]=[N-] (some centres undefined)	inactive	
CN(C)CCOC(=O)C(O)(c1ccccc1)C1CCCCC1 (centres undefined)	inactive	
O=P(Nc1nc2ccccc2s1)(c1ccccc1)c1ccccc1	inactive	
COc1ccc(NP(C)(=O)Oc2ccccc2OC)cc1 (centres undefined)	inactive	
CC1=CC2OC3CC4OC(=O)C=CC=CC(=O)OCCC(C)C(O)C(=O)OCC2(CC1O)C4(C)C31CO1 (centres undefined)		active: 2.82 µM
COc1ccc(N)c([N+](=O)[O-])c1[N+](=O)[O-]	inactive	
O=P(Nc1ccccn1)(c1ccc(Br)cc1)c1ccc(Br)cc1	inactive	
CN(C)C1(CNC(=O)c2ccc(Cl)c(S(N)(=O)=O)c2)CCCCC1	inactive	
Nc1ccc([As](=O)(O)c2ccc([N+](=O)[O-])cc2)cc1	inactive	
C(Cc1nn[nH]n1)Cc1nn[nH]n1	inactive	
O=[N+]([O-])c1ccc(OP2(=O)COCCO2)cc1 (centres undefined)	inactive	
O=[N+]([O-])c1ncn(CCn2cnc([N+](=O)[O-])n2)n1	inactive	
Cc1cc(-c2cccc3ccccc23)c(C)cn1.O=[N+]([O-])c1cc([N+](=O)[O-])c(O)c([N+](=O)[O-])c1	inactive	
CCOC(=O)c1ccc(NP(C)(=O)Oc2ccc(F)cc2)cc1 (centres undefined)	inactive	
O=P1(N(CCCl)CCCl)OCCC2CCCCN21 (centres undefined)	inactive	
COc1ccc(OP(C)(=O)Nc2ccc(SC(F)(F)F)cc2)cc1 (centres undefined)	inactive	
CCNC(=S)/N=C(\N)N[N+](=O)[O-]	inactive	
O=C(NC1CCS(=O)(=O)C1)NP(=S)(Oc1ccccc1)Oc1ccccc1 (centres undefined)	inactive	
Cc1ccc(NP(=O)(Oc2cccc(C)c2)Oc2cccc(C)c2)nc1	inactive	
O=[N+]([O-])c1cc([N+](=O)[O-])c2nc[nH]c2c1	inactive	

SMILES	activity change, negative = inhibition	Potency
c1ccc(-c2nn[nH]n2)c(-c2nn[nH]n2)c1	inactive	
CP(=O)(Nc1ccccc1)Oc1ccc(F)cc1 (centres undefined)	inactive	
CN(C)C(=O)Oc1noc2ccccc12	inactive: 8.22% [at 7.34 µM]	
O=c1c2cc([N+](=O)[O-])ccc2[nH]c2c([N+](=O)[O-])cc([N+](=O)[O-])cc12	inactive	
Cc1ccccc1OP(=O)(Nc1ccccn1)Oc1ccccc1C	inactive	
CC(=O)NC(SC(=S)N(CC(C)C)CC(C)C)C(Cl)(Cl)Cl (centres undefined)	inactive	
Cc1ccc(OP(=O)(Nc2ccccn2)Oc2ccc(C)cc2)cc1	inactive	
Cc1c([N+](=O)[O-])cc([N+](=O)[O-])c(Br)c1[N+](=O)[O-]	inactive	
COC(=O)c1cc2c(s1)N=C(c1ccccc1)N(C)P2(=O)N1CCOCC1 (centres undefined)	inactive	
CCC(=O)N1C2C3N(C(=O)CC)C1C1N(C(=O)CC)C(C(N1C(=O)CC)N3C(=O)CC)N2C(=O)CC	inactive	
O=C(OC1CN2CCC1CC2)c1ccccc1 (centres undefined)	inactive	
CP(=O)(Nc1ccccc1F)Oc1ccccc1 (centres undefined)	inactive	
CCc1cc(O)c([N+](=O)[O-])c(C)c1[N+](=O)[O-]	inactive	
CC(C)c1ccc(OP(C)(=O)Nc2ccc(SC(F)(F)F)cc2)cc1 (centres undefined)	inactive	
CC(C)(C)C(=O)NC(Sc1ccccc1)C(Cl)(Cl)Cl (centres undefined)	inactive	
CCOc1ccc(C2=NCC(CBr)S2)cc1 (centres undefined)	inactive	
O=P1(Nc2nc3ccc(Cl)cc3s2)COc2ccccc2O1 (centres undefined)	inactive	
CC(=O)Nc1ccc([As](=O)(O)O)c(O)c1	inactive	
COC(=O)C1(C)COP(=O)(NCc2ccccc2)OC1 (centres undefined)	inactive	
N#C/C(=C\c1ccc(N(CCBr)CCBr)cc1)C(N)=O	inactive	
CC(=O)c1ccc(N2CC2c2ccncc2)cc1 (centres undefined)	inactive	
C[C@@H]1C=CCP(=O)(Oc2ccccc2)O1 (some centres undefined)	inactive	
C[C@H]1OP(=O)(Oc2ccccc2)C[C@@H]2O[C@@H]21 (some centres undefined)	inactive	
Cc1ccccc1CN(C)C(=O)COC(=O)C(O)(c1ccccc1)c1ccccc1	inactive	
O=C(OCCN1CCN(CCOCc2ccccc2)CC1)C(O)(c1ccccc1)c1ccccc1	inactive	
